A mixed list of measured activities; the numbers were collected in NIAID ChemDB.

All rows: toxicity to cultured cells; cell line: MOLT-4; measure: CC50

An empty or dashed field is not shown.

SMILES | method | result
CCOP(=O)(N[C@@H](C)C(=O)OC)OC[C@H]1O[C@@H](n2cc(C)c(=O)[nH]c2=O)C[C@@H]1N=[N+]=[N-] | - | 250 µg/mL
O=C(O)c1cn(C2CC2)c2c(OC(F)F)c(N3CCN(c4ncccn4)CC3)c(F)cc2c1=O | - | 15 µM
CC(=O)c1ccc(C)cc1NC(C(N)=O)c1c(Cl)cccc1Cl | - | 66 µM
Nc1ccn([C@H]2CC[C@@H](CO)O2)c(=O)n1 | - | 1.4 µM
CCOCn1c(Cc2cc(C)cc(C)c2)c(CC)c(=O)[nH]c1=O | - | 168 µM
O=c1ccn([C@H]2CC[C@@H](CO)O2)c(=O)[nH]1 | - | 322 µg/mL
O=S(=O)(O)c1cc(O)c2c(NS(=O)(=O)c3ccc(-c4ccc(S(=O)(=O)Nc5cc(S(=O)(=O)O)cc6cc(S(=O)(=O)O)cc(O)c56)cc4)cc3)cc(S(=O)(=O)O)cc2c1 | - | >500 µM
Nc1ccn([C@@H]2CC[C@H](CO)O2)c(=O)n1 | - | 22 µM
Cc1ccc(NC(=O)C23CC4CC(CC(C4)C2)C3)c(C(=O)N/N=C/c2cccs2)c1 | - | 48.6 µM
CCCCCCCCCCCCSCC(COP(=O)([O-])OCC[N+](C)(C)C)OCCCCCCCCC(=O)OCC(=O)OC[C@H]1O[C@@H](n2cc(C)c(=O)[nH]c2=O)C[C@@H]1N=[N+]=[N-] | trypan blue | >100 µM
NC(=O)c1c[se]c([C@@H]2O[C@H](CO)[C@@H](O)[C@H]2O)n1 | - | 0.6 µM
CCCNC(=O)c1cc(Cl)ccc1NC(=O)C12CC3CC(CC(C3)C1)C2 | - | 22.4 µM
O=C(O)P(=O)(O)O | - | 433 µg/mL
CCn1cc(C(=O)O)c(=O)c2cc(F)c(N3CCN(c4ccccc4OC)CC3)c(OC(F)F)c21 | - | 6.6 µM
NC(=O)c1csc([C@@H]2O[C@H](CO)[C@@H](O)[C@H]2O)n1 | - | 5.2 µM
Nc1nc(N)c2ncn([C@H]3CO[C@@H](CO)O3)c2n1 | - | >500 µM
Nc1nc(NC2CC2)c2ncn([C@H]3C=C[C@@H](CO)O3)c2n1 | - | 75 µM
Cc1cn([C@H]2C[C@H](N=[N+]=[N-])[C@@H](CO)O2)c(=O)[nH]c1=O | - | 3 µM
Cc1cn([C@H]2C[C@H](N=[N+]=[N-])[C@@H](CO)O2)c(=O)[nH]c1=O | trypan blue | >100 µM
NCC(=O)Nc1ccc(Cl)cc1C(=O)c1ccc[nH]1 | - | 7.9 µg/mL
Cn1cc(C(=O)O)c(=O)c2cc(F)c(N3CC=C(c4ccccc4)CC3)c(C(F)(F)F)c21 | - | 1.6 µM
NNC(=O)c1cc(Cl)ccc1NC(=O)C12CC3CC(CC(C3)C1)C2 | - | 8.2 µM
CCOCn1c(Sc2cc(C)cc(C)c2)c(CC)c(=O)[nH]c1=O | - | >100 µM
CCCCCCCCCCCCCCCC(=O)Nc1cc(S(=O)(=O)O)cc2cc(S(=O)(=O)O)cc(O)c12 | - | 230 µM
O=C(O)C1=CC(=C(c2ccc(O)c(C(=O)O)c2)c2ccc(O)c(C(=O)O)c2)C=CC1=O | - | 82 µg/mL
CCCNC(=O)c1cc(C)ccc1NC(=O)C12CC3CC(CC(C3)C1)C2 | - | 51.1 µM
CCCCN1C[C@H](O)[C@@H](O)[C@H](O)[C@H]1CO | - | >500 µg/mL
Nc1nc2c(ncn2[C@H]2C=C[C@@H](CO)O2)c(=O)[nH]1 | - | 35 µM
O=C(N/N=C/c1cccs1)c1cc(Cl)ccc1NC(=O)C12CC3CC(CC(C3)C1)C2 | - | 50.6 µM
Nc1nc(=O)n([C@@H]2CC[C@H](CO)O2)cc1F | - | 22 µM

For reference, 2 entries again:

{"SMILES": "Nc1nc(=O)n([C@@H]2CC[C@H](CO)O2)cc1F", "result": "22 µM"}
{"SMILES": "Nc1ccn([C@H]2CC[C@@H](CO)O2)c(=O)n1", "result": "1.4 µM"}

CCn: concentration that lowers growth or viability of the cells by n%. Conditions beyond the fields shown may differ between rows.